According to publication PMC7582914, “Cell-penetrating peptide-mediated cell entry of H5N1 highly pathogenic avian influenza virus” (2020):

Experiments:
U937 cells = test: Peptide uptake by flow cytometry, U937 cells; conditions: 10 µg/mL FITC-conjugated peptide, 60 min, 37 °C, then 0.1% trypsin-EDTA 10 min 37 °C, geometric MFI of FITC in viable cells relative to untreated cells, mean ± SEM, n = 3
A549 cells = test: Peptide uptake by flow cytometry, A549 cells; conditions: 10 µg/mL FITC-conjugated peptide in serum-free Opti-MEM, 60 min, 37 °C, harvested with 0.25% trypsin-EDTA, geometric MFI of FITC in 7-AAD-negative viable cells relative to untreated cells, mean ± SEM, n = 3
KU812 cells = test: Peptide uptake by flow cytometry, KU812 cells
[1] = Peptide distribution in lung tissue, mouse intranasal inhalation model; conditions: C57BL/6 N mice, 25 μg FITC-conjugated peptide, lungs isolated 15 min after inhalation, anti-fluorescein immunostaining, confocal microscopy, five experiments (Fig. 2b)
COS-7 cells [2] = test: Peptide uptake by flow cytometry, COS-7 cells; conditions: 60 min, 37 °C
HeLa cells = test: Peptide uptake by flow cytometry, HeLa cells; conditions: 10 µg/mL FITC-conjugated peptide in serum-free Opti-MEM, 60 min, 37 °C, harvested with 0.25% trypsin-EDTA, geometric MFI of FITC in viable cells relative to untreated cells, mean ± SEM, n = 3
Raji cells = test: Peptide uptake by flow cytometry, Raji cells; conditions: 10 µg/mL FITC-conjugated peptide, 60 min, 37 °C, then 0.1% trypsin-EDTA 10 min 37 °C, geometric MFI of FITC in viable cells relative to untreated cells, mean ± SEM, n = 3
Jurkat cells = test: Peptide uptake by flow cytometry, Jurkat cells; conditions: 10 µg/mL FITC-conjugated peptide, 60 min, 37 °C, then 0.1% trypsin-EDTA 10 min 37 °C, geometric MFI of FITC in viable cells relative to untreated cells, mean ± SEM, n = 3
NIH/3T3 cells = test: Peptide uptake by flow cytometry, NIH/3T3 cells; conditions: 10 µg/mL FITC-conjugated peptide in serum-free Opti-MEM, 60 min, 37 °C, harvested with 0.25% trypsin-EDTA, geometric MFI of FITC in viable cells relative to untreated cells, mean ± SEM, n = 3
THP-1 cells = test: Peptide uptake by flow cytometry, THP-1 cells; conditions: 10 µg/mL FITC-conjugated peptide, 60 min, 37 °C, then 0.1% trypsin-EDTA 10 min 37 °C, geometric MFI of FITC in viable cells relative to untreated cells, mean ± SEM, n = 3
HL-60 cells = test: Peptide uptake by flow cytometry, HL-60 cells; conditions: 10 µg/mL FITC-conjugated peptide, 60 min, 37 °C, then 0.1% trypsin-EDTA 10 min 37 °C, geometric MFI of FITC in viable cells relative to untreated cells, mean ± SEM, n = 3
COS-7 cells [3] = test: Confocal microscopy imaging of peptide internalisation, COS-7 cells; conditions: living, unfixed, 10 μg/mL FITC-conjugated peptide, 60 min, 37 °C, representative of three experiments (Fig. 1b, S1)
MDCK cells = test: Peptide uptake by flow cytometry, MDCK cells; conditions: 10 µg/mL FITC-conjugated peptide in serum-free Opti-MEM, 60 min, 37 °C, harvested with 0.25% trypsin-EDTA, geometric MFI of FITC in viable cells relative to untreated cells, mean ± SEM, n = 3
J774A.1 cells = test: Peptide uptake by flow cytometry, J774A.1 cells; conditions: 10 µg/mL FITC-conjugated peptide, 60 min, 37 °C, then 0.1% trypsin-EDTA 10 min 37 °C, geometric MFI of FITC in viable cells relative to untreated cells, mean ± SEM, n = 3
Lec8 cells = test: Cell number and viability, trypan blue dye exclusion; conditions: EIPA 10, 20 and 40 μM, 37 °C, 8 h, n = 3 (Fig. S9a)

Question: With `N=C(N)NCCC[C@H](NC(=O)[C@H](CCCNC(=N)N)NC(=O)[C@H](CCCNC(=N)N)NC(=O)[C@H](CCC(N)=O)NC(=O)[C@H](CCCNC(=N)N)NC(=O)[C@H](CCCNC(=N)N)NC(=O)[C@H](CCCCN)NC(=O)[C@H](CCCCN)NC(=O)[C@H](CCCNC(=N)N)NC(=O)CNC(=O)[C@H](Cc1ccc(O)cc1)NC(=O)CCCCCNC(=S)Nc1ccc2c(c1)C(=O)OC21c2ccc(O)cc2Oc2cc(O)ccc21)C(=O)O` as the compound, how does the Relative fluorescence intensity (U937 cells) read?
Answer: 43.5 ± 9.6 fold change

Question: What about the Relative fluorescence intensity (A549 cells) of the same compound?
Answer: 31.4 ± 1.8 fold change

Question: And the “Increase of MFI after removal of surface-bound peptide with trypsin” value (KU812 cells; 10 µg/mL FITC-conjugated peptide 60 min 37 °C, then with or without 0.1% trypsin-EDTA 10 min 37 °C, n = 3 (Fig. S3))?
Answer: persisted even after trypsin treatment

Question: And the Relative fluorescence intensity (KU812 cells; 10 µg/mL FITC-conjugated peptide in Opti-MEM, 60 min, 37 °C, then 0.1% trypsin-EDTA 10 min 37 °C, flow cytometry, geometric MFI of FITC in viable cells relative to untreated cells, mean ± SEM, n = 3)?
Answer: 89.7 ± 3.4 fold change

Question: And the “Incubation time at which peptide uptake was maximal” value (KU812 cells; 10 μg/mL FITC-conjugated peptide, 37 °C, 30, 60, 120, 180 and 240 min, flow cytometry MFI, n = 3 (Fig. S2))?
Answer: 30 min

Question: And the “Geometric mean fluorescence intensity (MFI) in viable cells” value (KU812 cells; 10 μg/mL FITC-conjugated peptide, 37 °C, 60 min, flow cytometry, n = 3 (Fig. 1c), result in words)?
Answer: significant increase of MFI

Question: What about the “Peptide distribution in lung tissue sections” value [1] of the same compound?
Answer: wide distribution

Question: What about the Relative fluorescence intensity (COS-7 cells [2]; 10 µg/mL FITC-conjugated peptide in Opti-MEM, harvested with 0.25% trypsin-EDTA, geometric MFI of FITC in viable cells relative to untreated cells, mean ± SEM, n = 3) of the same compound?
Answer: 59.2 ± 7.3 fold change

Question: And the “Geometric mean fluorescence intensity (MFI) in viable cells” value (COS-7 cells [2]; 10 μg/mL FITC-conjugated peptide, n = 3 (Fig. 1c), result in words)?
Answer: significant increase of MFI

Question: What about the Relative fluorescence intensity (HeLa cells) of the same compound?
Answer: 90.0 ± 12.3 fold change

Question: What about the Relative fluorescence intensity (Raji cells) of the same compound?
Answer: 29.5 ± 4.1 fold change

Question: And the Relative fluorescence intensity (Jurkat cells)?
Answer: 32.7 ± 3.3 fold change

Question: And the Relative fluorescence intensity (NIH/3T3 cells)?
Answer: 55.0 ± 23.1 fold change

Question: And the Relative fluorescence intensity (THP-1 cells)?
Answer: 37.6 ± 7.5 fold change

Question: And the Relative fluorescence intensity (HL-60 cells)?
Answer: 25.6 ± 3.6 fold change

Question: And the “Internalisation and localisation of peptide by confocal microscopy” value (COS-7 cells [3])?
Answer: localised in both the cytoplasm and nucleus

Question: And the Relative fluorescence intensity (MDCK cells)?
Answer: 58.7 ± 17.4 fold change

Question: And the Relative fluorescence intensity (J774A.1 cells)?
Answer: 68.0 ± 8.9 fold change

Question: Which “Total cell number and cell viability” value (Lec8 cells) does the source give for `CCN(c1nc(N)c(C(=O)NC(=N)N)nc1Cl)C(C)C` here?
Answer: not affected
